The results in this text go back to ChEMBL document CHEMBL4831479, “Discovery of Novel Thiophene-arylamide Derivatives as DprE1 Inhibitors with Potent Antimycobacterial Activities” (J Med Chem, 2021).

In brackets after ≈: the same amount, converted by molar mass.

Test [1] is described as follows: Ratio of MIC for Mycobacterium bovis BCG transfected with pMV261:Mt-dprE1 to MIC for wild type Mycobacterium bovis BCG.
For test [2], the system named is Mycobacterium tuberculosis. In words: Non-covalent inhibition of DprE1 in PBTZ169-resistant Mycobacterium tuberculosis measured after 7 days by microplate Alamar blue assay. The following applies: time 7.0 day. Background: Resazurin is reduced to fluorescent resorufin, in cell work by metabolically active cells.

Regarding `CCOC(=O)NC(=O)c1ccsc1NC(=O)c1ccc(C(=O)N2CCCCC2)s1`, the Ratio in test [1] came out at 32.

As for `CCOC(=O)NC(=O)c1ccsc1NC(=O)c1ccc(C(=O)N2CCCCC2)c(F)c1`, in test [1], the Ratio is over 8.

As to `CCOC(=O)NC(=O)c1ccsc1NC(=O)c1nc2ccccc2s1`, in test [2], the MIC turned out to be 1.23 µg/mL (≈ 3.28 µM).

For `O=C(Nc1sccc1C(=O)Nc1nccc(C(F)(F)F)n1)c1ccc(C(=O)N2CCCCC2)cc1`, the Ratio in test [1] was 8.
